Source: the NIST ThermoML archive (doi:10.1021/je8003707)
Numbers after ± are expanded uncertainties.

Conditions: 101 kPa, Liquid; for viscosity: Capillary tube (Ostwald / Ubbelohde) method; for mass density: Pycnometric method

CCCCOP(=O)(OCCCC)OCCCC [tributyl phosphate]
Conditions	mass density [kg/m3]	viscosity [mPa·s]
288.15 K	981 ± 0.3	4.304 ± 0.032
293.15 K	976.8 ± 0.3	3.77 ± 0.028
298.15 K	972.5 ± 0.3	3.341 ± 0.025
303.15 K	968.2 ± 0.3	2.969 ± 0.022
308.15 K	963.9 ± 0.3	2.651 ± 0.02
